Anti-infective test results gathered from many reports (values: NIAID ChemDB through PubChem).

Shared fields: toxicity to cultured cells; cells: PBMC; measure: CC50

Blank or dashed fields: not listed here. Rows are shuffled and stem from different studies. CCn is the concentration with n% toxicity to the cells.

compound	method	result
Nc1ncnc2c1ncn2[C@H]1CC[C@@H](CO)O1		>100 µM
CCOC(=O)[C@H](C)NP(=O)(OC[C@H]1O[C@@H](n2cnc3c(N)nc(N)nc32)[C@](C)(O)[C@@H]1O)Oc1ccccc1CCC(=O)OC(C)C		>100 µM
CCOCn1c([Se]c2ccccc2)c(C)c(=O)[nH]c1=O		>100 µM
CCOC(=O)[C@H](C)N[P@](=O)(OC[C@H]1O[C@@H](n2cnc3c(N)nc(N)nc32)[C@](C)(O)[C@@H]1O)Oc1ccccc1CCC(=O)OC(C)C		>100 µM
C=C/C=C(\C=C/Cc1c2nc(c(-c3ccc(S(=O)(=O)NCCN(CC)CC)cc3)c3ccc([n-]3)c(C/C=C\C(=C/C=C)S(=O)(=O)NCCN(CC)CC)c3ccc([n-]3)c(-c3ccc(S(=O)(=O)NCCN(CC)CC)cc3)c3nc1C=C3)C=C2)S(=O)(=O)NCCN(CC)CC.[O]=[V+2]	MTT	>50 µM
Oc1ccc(CNCCCNCc2ccc(O)c3ncccc23)c2cccnc12		>10 µM
CC(C)C(N[C@@H](Cc1ccccc1)[C@@H](O)[C@H](O)[C@H](Cc1ccccc1)NC(C(=O)OCc1ccccc1)C(C)C)C(=O)OCc1ccccc1		>10 µM
C[C@]1(CCP(=O)(O)O)CO[C@@H](n2cnc3c(=O)[nH]c(N)nc32)C1		>100 µM
Nc1nc(=O)n([C@@H]2C[Se][C@H](CO)O2)cc1F		>100 µM
Cc1ccc(-c2ccc3c(c2)C=C(C(=O)Nc2ccc(C[N+](C)(C)C4CCOCC4)cc2)CCC3)cc1	MTT	50 µM
CC(C)(C)NC(=O)[C@@H]1C[C@@H]2CCCC[C@@H]2CN1C[C@@H](O)[C@H](Cc1ccccc1)NC(=O)[C@H](CC(N)=O)NC(=O)c1ccc2ccccc2n1		>10 µM
Cc1cn([C@H]2C[C@H](N=[N+]=[N-])[C@@H](COP(=O)(OCCC#N)OC[C@@H]3CC[C@H](n4cnc5c(N)ncnc54)O3)O2)c(=O)[nH]c1=O		>200 µM
CC(C)OC(=O)CCc1ccccc1O[P@@](=O)(N[C@@H](C)C(=O)OC(C)C)OC[C@H]1O[C@@H](n2cnc3c(N)nc(N)nc32)[C@](C)(O)[C@@H]1O		>100 µM
Nc1ncnc2c1ncn2[C@@H]1OC[C@@](/C=C/P(=O)(O)O)(CO)[C@@H]1F	MTT	>100 µM
C1=Cc2nc1c(-c1ccc(-n3cccc3)cc1)c1ccc([nH]1)c(-c1ccc(-n3cccc3)cc1)c1nc(c(-c3ccc(-n4cccc4)cc3)c3ccc([nH]3)c2-c2ccc(-n3cccc3)cc2)C=C1		>100 µM
CC(=O)Oc1c(OC(C)=O)c(C#N)c2c(OC(C)=O)c(-c3c(C)cc4c(C(C)C)c(OC(C)=O)c(OC(C)=O)c(C#N)c4c3OC(C)=O)c(C)cc2c1C(C)C		8.7 µM
Cc1cn([C@H]2C[C@H](N=[N+]=[N-])[C@@H](CO)O2)c(=O)[nH]c1=O	MTS	>1 µM
CC(C)(C)C(=O)c1sc(C(=O)NCc2ccccc2)c(O)c1O	resazurin	12.5 µM
Cc1ccc(Cn2c(=O)ccn(CC#N)c2=O)cc1		>490 µM
Oc1cccc(-c2c3nc(c(-c4cccc(O)c4)c4ccc([nH]4)c(-c4cccc(O)c4)c4nc(c(-c5cccc(O)c5)c5ccc2[nH]5)C=C4)C=C3)c1		47 µM
CC[C@H](C)[C@H](NC(=O)[C@H](C(C)C)[C@@H](O)[C@H](O)[C@H](CC1CCCCC1)NC(=O)[C@H](Cc1cnc[nH]1)NC(=O)COc1cccc2ccccc12)C(=O)NCc1ccccn1		>100 µM
CCO/N=C(\c1ccc(Br)cc1)C1CCN(C2(C)CCN(C(=O)c3c(C)cc[n+]([O-])c3C)CC2)CC1	MTT	>100 µM
Nc1ncnc2c1ncn2[C@@H]1O[C@@H](CO)C=C1F		>100 µM
CC#CCN1C(=O)[C@H]([C@@H](O)C2CCCCC2)NC(=O)C12CCN(Cc1c(C)nn(-c3ccccc3)c1C)CC2	MTT	60 µM
COc1ccc(-c2c3nc(c(-c4ccc(OC)cc4OC)c4ccc([nH]4)c(-c4ccc(OC)cc4OC)c4nc(c(-c5ccc(OC)cc5OC)c5ccc2[nH]5)C=C4)C=C3)c(OC)c1		>100 µM
Nc1ccc(-c2ccc3ncc4ccc(=O)n(-c5cccc(C(F)(F)F)c5)c4c3c2)cn1	MTT	0.0883 µM
Nc1nc2c(ncn2[C@H]2CO[C@@H](CO)O2)c(=O)[nH]1		>500 µM
CCOC(=O)CCc1ccccc1O[P@@](=O)(N[C@@H](C)C(=O)OCC)OC[C@H]1O[C@@H](n2cnc3c(N)nc(N)nc32)[C@](C)(O)[C@@H]1O		>100 µM
Nc1ccccc1-c1c2nc(c(-c3ccccc3N)c3ccc([nH]3)c(-c3ccccc3N)c3nc(c(-c4ccccc4N)c4ccc1[nH]4)C=C3)C=C2		>200 µM
Cc1cn([C@H]2C[C@H](N=[N+]=[N-])[C@@H](COP(=O)(O)OC[C@@H]3CC[C@H](n4cnc5c(=O)[nH]cnc54)O3)O2)c(=O)[nH]c1=O		>100 µM
Oc1ccc(CN2CCCNCCCNCCNCCC2)c2cccnc12		>10 µM
CCOC(=O)CCc1ccccc1O[P@](=O)(N[C@@H](C)C(=O)OCC)OC[C@H]1O[C@@H](n2cnc3c(N)nc(N)nc32)[C@](C)(O)[C@@H]1O		>100 µM
Cc1cc2c(C(C)C)c(O)c(O)c(/C=N/O)c2c(O)c1-c1c(C)cc2c(C(C)C)c(O)c(O)c(/C=N/O)c2c1O		>100 µM
CC(C)CN(C[C@@H](O)[C@H](Cc1ccccc1)NC(=O)O[C@H]1CCOC1)S(=O)(=O)c1ccc(N)cc1		>100 µM
Cc1cc(C)cc(Cn2c(=O)ccn(Cc3ccccc3)c2=O)c1		194 µM
Nc1ncnc2c1ncn2CCOCP(=O)(O)O	MTT	10 µM
Clc1ccccc1-c1nc2ccccn2c1NC1CCCCC1	ATP / luminescence	>10 µM
Cc1cn([C@H]2C[C@H](N=[N+]=[N-])[C@@H](CO)O2)c(=O)[nH]c1=O		>100 µM
Cc1ccc(CCNC(=S)Nc2ccc(Br)cn2)cc1		71 µM
COc1cccc(-c2c3nc(c(-c4cccc(OC)c4)c4ccc([nH]4)c(-c4cccc(OC)c4)c4nc(c(-c5cccc(OC)c5)c5ccc2[nH]5)C=C4)C=C3)c1		>100 µM
O=C1N(Cc2ccc(CO)cc2)[C@H](Cc2ccccc2)[C@H](O)[C@@H](O)[C@@H](Cc2ccccc2)N1Cc1ccc(CO)cc1		77 µM
Oc1cc(O)cc(-c2c3nc(c(-c4cc(O)cc(O)c4)c4ccc([nH]4)c(-c4cc(O)cc(O)c4)c4nc(c(-c5cc(O)cc(O)c5)c5ccc2[nH]5)C=C4)C=C3)c1		>100 µM
Cc1cc2c(C(C)C)c(O)c(O)c(C=O)c2c(O)c1-c1c(C)cc2c(C(C)C)c(O)c(O)c(C=O)c2c1O		>100 µM
Nc1ncnc2c1ncn2C1OC(CO)C=C1F		>100 µM
Cc1cc(C)cc(Cn2c(=S)ccn(CC#N)c2=O)c1		>438 µM
O=C(O)c1cc(-n2cccc2)ccc1Cl	trypan blue	>500 µg/mL
Oc1ccccc1-c1c2nc(c(-c3ccccc3O)c3ccc([nH]3)c(-c3ccccc3O)c3nc(c(-c4ccccc4O)c4ccc1[nH]4)C=C3)C=C2		50 µM
Cc1oncc1C(=O)Nc1ccc(C(F)(F)F)cc1		>100 µM
COCC(=O)N[C@H](C(=O)N[C@@H](Cc1ccccc1)[C@H]1O[C@H]1CC(=O)NC(Cc1ccccc1)C(C)C)C(C)(C)S(C)(=O)=O		>10 µM
S=C(NCCN1CCNCC1)Nc1ccc(Br)cn1		>100 µM
C=C[C@H](OC(C)=O)c1ccc(OC(C)=O)cc1	MTS	>4 µM
Cc1cn([C@H]2C[C@H](N=[N+]=[N-])[C@@H](CO)O2)c(=O)nc1N		>200 µM
CC(C)OCC(=O)N[C@H](C(=O)N[C@@H](Cc1ccccc1)[C@H]1O[C@H]1CC(=O)NC(Cc1ccccc1)C(C)C)C(C)(C)S(C)(=O)=O		>10 µM
CCC1=C(CC)c2cc3[n-]c(cc4[n-]c(cc5nc(cc1n2)C(CC)=C5CC)c(CC)c4CC)c(CC)c3CC.[O]=[V+2]	MTT	>50 µM
Cc1cn([C@H]2C[C@H](N=[N+]=[N-])[C@@H](CO)O2)c(=O)[nH]c1=O		>0.37 µM
Cc1cn([C@H]2C[C@H](N=[N+]=[N-])[C@@H](CO)O2)c(=O)[nH]c1=O		>100 µM
CCN(CC)CCNC(=O)/C=C/C1(C)COC2(OO1)C1CC3CC(C1)CC2C3	MTT	>100 µM
NC(=O)CCNC(=O)c1ccccc1SC(=O)c1cccnc1	XTT	56.3 µM
Cc1c(-c2c(C)c(=O)c3c(C(C)C)c(=O)c(=O)c(C=O)c-3c2=O)c(O)c2c(C=O)c(O)c(O)c(C(C)C)c2c1O		>100 µM
C1CNCCNCCCN(CCCN2CCCNCCNCCCNCC2)CCNC1		>300 µM
CCCCN(C)C(=O)N[C@H](C(=O)N[C@@H](Cc1ccccc1)[C@H]1O[C@H]1CC(=O)NC(Cc1ccccc1)C(C)C)C(C)(C)S(C)(=O)=O		>10 µM
Cc1cc2c(C(C)C)c(O)c(O)c(C=N)c2c(O)c1-c1c(C)cc2c(C(C)C)c(O)c(O)c(C=N)c2c1O		>100 µM
Oc1ccc(CN2CCN(Cc3ccc(O)c4ncccc34)CC2)c2cccnc12		>10 µM
CS(=O)CCCCN=C=S	MTT	10.4 µM
CC(C)C(Cc1ccccc1)NC(=O)C[C@@H]1O[C@@H]1[C@H](Cc1ccccc1)NC(=O)[C@@H](NC(=O)c1ccccn1)C(C)(C)S(C)(=O)=O		>10 µM
N#CCn1ccc(=O)n(Cc2ccc(-c3ccccc3)cc2)c1=O		>394 µM
O=C(O)C(=O)/C=C(\O)c1cn(Cc2ccccc2)c(=O)n(Cc2ccccc2)c1=O	MTS	>200 µM
CCOCn1c([Se]c2ccccc2)c(CC)c(=O)[nH]c1=O		>100 µM
CCC(Cc1ccccc1)c1cc(O)c(C(CC)c2ccccc2)c(=O)o1		20 µM
CC(C)OC(=O)CCc1ccccc1OP(=O)(N[C@@H](C)C(=O)OC(C)C)OC[C@H]1O[C@@H](n2cnc3c(N)nc(N)nc32)[C@](C)(O)[C@@H]1O		>100 µM
COc1cccc(OC)c1-c1c2nc(c(-c3c(OC)cccc3OC)c3ccc([nH]3)c(-c3c(OC)cccc3OC)c3nc(c(-c4c(OC)cccc4OC)c4ccc1[nH]4)C=C3)C=C2		>100 µM
Cc1cc(C)nc(Cn2c(=O)ccn(Cc3ccccc3)c2=O)c1		>389 µM
COc1ccccc1-c1c2nc(c(-c3ccccc3OC)c3ccc([nH]3)c(-c3ccccc3OC)c3nc(c(-c4ccccc4OC)c4ccc1[nH]4)C=C3)C=C2		200 µM
Cc1cn([C@H]2C[C@H](N=[N+]=[N-])[C@@H](CO)O2)c(=O)[nH]c1=O		4.24 µM
C[C@]1(CCP(=O)(O)O)CO[C@@H](n2cnc3c(N)ncnc32)C1		42.4 µM

7 of the rows above, restated:

{"compound": "CC[C@H](C)[C@H](NC(=O)[C@H](C(C)C)[C@@H](O)[C@H](O)[C@H](CC1CCCCC1)NC(=O)[C@H](Cc1cnc[nH]1)NC(=O)COc1cccc2ccccc12)C(=O)NCc1ccccn1", "result": ">100 µM"}
{"compound": "COCC(=O)N[C@H](C(=O)N[C@@H](Cc1ccccc1)[C@H]1O[C@H]1CC(=O)NC(Cc1ccccc1)C(C)C)C(C)(C)S(C)(=O)=O", "result": ">10 µM"}
{"compound": "Cc1cc2c(C(C)C)c(O)c(O)c(C=N)c2c(O)c1-c1c(C)cc2c(C(C)C)c(O)c(O)c(C=N)c2c1O", "result": ">100 µM"}
{"compound": "Cc1cc(C)cc(Cn2c(=S)ccn(CC#N)c2=O)c1", "result": ">438 µM"}
{"compound": "CCC1=C(CC)c2cc3[n-]c(cc4[n-]c(cc5nc(cc1n2)C(CC)=C5CC)c(CC)c4CC)c(CC)c3CC.[O]=[V+2]", "method": "MTT", "result": ">50 µM"}
{"compound": "Cc1cn([C@H]2C[C@H](N=[N+]=[N-])[C@@H](COP(=O)(OCCC#N)OC[C@@H]3CC[C@H](n4cnc5c(N)ncnc54)O3)O2)c(=O)[nH]c1=O", "result": ">200 µM"}
{"compound": "C[C@]1(CCP(=O)(O)O)CO[C@@H](n2cnc3c(N)ncnc32)C1", "result": "42.4 µM"}